Source: patent US7030150B2, “Benzimidazole compounds and antiviral uses thereof” (Trimeris, Inc., priority 2001, dated 2006)

System: RSV
Assay: RSV plaque reduction (PRA) / syncytia formation antiviral assay in Hep2 cells
Assay type: cell-based, Respiratory Syncytial Virus
Details: for Selective Index: ratio CC50/IC50, Tables 1-7; for SI: ratio CC50/IC50, Table 8

SMILES | Selective Index | SI
CN(C)CCN(C)Cc1nc2ccccc2n1Cc1nc2ccccc2[nH]1 [compound 84] | 55.6 | 
CCOCCCNCc1nc2ccccc2n1Cc1nc2ccccc2[nH]1 [compound 182] | 370 | 
OCC1CCCN1Cc1nc2ccccc2n1Cc1nc2ccccc2[nH]1 (stereo not shown) [compound 209] | 10000 | 
CCCCCCCCN(CCCCCCCC)Cc1nc2ccccc2n1Cc1nc2ccccc2[nH]1 [compound 106] | 9.3 | 
CCN(CCO)Cc1nc2ccccc2n1Cc1nc2ccccc2[nH]1 [compound 96] | 188.7 | 
c1ccc2c(NCc3nc4ccccc4n3Cc3nc4ccccc4[nH]3)cccc2c1 [compound 180] | 35 | 
COc1ccc(CCNCc2nc3ccccc3n2Cc2nc3ccccc3[nH]2)cc1 [compound 120] | 161 | 
c1cncc(Cn2c(CN3CCCCC3)nc3ccccc32)c1 [compound 70] | 270 | 
OCc1ccc2c(c1)nc(CN1CCOCC1)n2Cc1nc2ccccc2[nH]1 [compound 243] |  | 170
Clc1ccc(Cn2c(CN3CCCCC3)nc3ccccc32)c(Cl)c1 [compound 55] | 12.2 | 
c1ccc2c(c1)nc(CN1CCCCC1)n2Cc1ccncc1 [compound 71] | 63 | 
Clc1ccc(CCNCc2nc3ccccc3n2Cc2nc3ccccc3[nH]2)c(Cl)c1 [compound 179] | 45 | 
c1ccc2[nH]c(Cn3c(CN4CCSC4)nc4ccccc43)nc2c1 [compound 222] | 666.7 | 
c1ccc2c(c1)CN(Cc1ccc3c(c1)nc(CN1CCOCC1)n3Cc1nc3ccccc3[nH]1)C2 [compound 254] |  | 600
c1ccc2[nH]c(Cn3c(CN4CCC(N5CCCC5)CC4)nc4ccccc43)nc2c1 [compound 228] | 46.2 | 
c1ccc2c(c1)CCCC2NCc1nc2ccccc2n1Cc1nc2ccccc2[nH]1 (stereo not shown) [compound 156] | 118 | 
O=C1CCCN1CCCNCc1nc2ccccc2n1Cc1nc2ccccc2[nH]1 [compound 141] | 58 | 
CN(Cc1nc2ccccc2n1Cc1nc2ccccc2[nH]1)C(c1ccccc1)c1ccccc1 [compound 111] | 12.5 | 
FC(F)(F)c1ccc(CNCc2nc3ccccc3n2Cc2nc3ccccc3[nH]2)cc1 [compound 151] | 13 | 
CCN(Cc1nc2ccccc2n1Cc1nc2ccccc2[nH]1)C(C)C [compound 81] | 450 | 
CC(C)OCCCNCc1nc2ccccc2n1Cc1nc2ccccc2[nH]1 [compound 129] | 556 | 
CC(CCc1ccccc1)NCc1nc2ccccc2n1Cc1nc2ccccc2[nH]1 (stereo not shown) [compound 143] | 91 | 

SMILES | Selective Index | SI
c1ccc(Cn2c(CN3CCCCC3)nc3ccccc32)cc1 [compound 78] | 24 | 
Fc1ccc(CCNCc2nc3ccccc3n2Cc2nc3ccccc3[nH]2)cc1 [compound 167] | 256 | 
c1ccc2[nH]c(Cn3c(CNCC4CCCO4)nc4ccccc43)nc2c1 (stereo not shown) [compound 170] | 588 | 
c1ccc(-c2ccc(Cn3c(CN4CCCCC4)nc4ccccc43)cc2)cc1 [compound 52] | 11.31 | 
c1cncc(CNCc2nc3ccccc3n2Cc2nc3ccccc3[nH]2)c1 [compound 113] | 588 | 
c1ccc(CN2CCC(NCc3nc4ccccc4n3Cc3nc4ccccc4[nH]3)C2)cc1 (stereo not shown) [compound 149] | 42 | 
C[C@H](c1cccc2ccccc12)N(C)Cc1nc2ccccc2n1Cc1nc2ccccc2[nH]1 [compound 108] | 80 | 
CN(C)CCN(Cc1ccccc1)Cc1nc2ccccc2n1Cc1nc2ccccc2[nH]1 [compound 93] | 185.2 | 
O=C1CCCN1CCCNCc1nc2ccccc2n1Cc1nc2ccccc2[nH]1 [compound 158] | 294 | 
c1ccc2[nH]c(Cn3c(CNCc4ccc5c(c4)OCO5)nc4ccccc43)nc2c1 [compound 169] | 76 | 
N#CCCN(Cc1cccnc1)Cc1nc2ccccc2n1Cc1nc2ccccc2[nH]1 [compound 102] | 12.5 | 
CCCCN(CCCC)CCNCc1ccc2c(c1)nc(CN1CCOCC1)n2Cc1nc2ccccc2[nH]1 [compound 250] |  | 13
C#CCN(C)Cc1nc2ccccc2n1Cc1nc2ccccc2[nH]1 [compound 90] | 322.6 | 
FC(F)(F)c1ccccc1CNCc1nc2ccccc2n1Cc1nc2ccccc2[nH]1 [compound 139] | 23 | 
c1ccc2[nH]c(Cn3c(CN4CCOCC4)nc4cc(CN5CCCCC5)ccc43)nc2c1 [compound 261] |  | 13
N#CCn1c(CN2CCOCC2)nc2ccccc21 [compound 9] | 63 | 
CC1CC(C)CN(Cc2nc3ccccc3n2Cc2nc3ccccc3[nH]2)C1 (stereo not shown) [compound 205] | 1000 | 
Fc1cc(F)cc(CNCc2nc3ccccc3n2Cc2nc3ccccc3[nH]2)c1 [compound 173] | 8 | 
O=[N+]([O-])c1ccc(Cn2c(CN3CCCCC3)nc3ccccc32)o1 [compound 54] | 83 | 
COC(=O)c1ccc2nc(CN3CCOCC3)n(Cc3nc4ccccc4[nH]3)c2c1 [compound 11] | 39 | 
c1ccc2c(Cn3c(CN4CCCCC4)nc4ccccc43)c3ccccc3nc2c1 [compound 72] | 149 | 
CCN(CC)CCNCc1nc2ccccc2n1Cc1nc2ccccc2[nH]1 [compound 162] | 333 | 

SMILES | Selective Index | SI
c1ccc(CNCc2nc3ccccc3n2Cc2nc3ccccc3[nH]2)cc1 [compound 145] | 51 | 
C1=CCN(Cc2nc3ccccc3n2Cc2nc3ccccc3[nH]2)CC1 [compound 202] | 125 | 
c1ccc(Cn2c(CN3CCCCC3)nc3ccccc32)nc1 [compound 56] | 50 | 
CCOCCCNCc1nc2ccccc2n1Cc1nc2ccccc2[nH]1 [compound 159] | 204 | 
Fc1cccc(F)c1CNCc1nc2ccccc2n1Cc1nc2ccccc2[nH]1 [compound 161] | 172 | 
c1ccc2c(c1)nc(CN1CCCCC1)n2Cc1ccncc1 [compound 58] | 77 | 
c1ccc2c(c1)CC(NCc1nc3ccccc3n1Cc1nc3ccccc3[nH]1)C2 [compound 178] | 70 | 
CCCCCN(C)Cc1nc2ccccc2n1Cc1nc2ccccc2[nH]1 [compound 91] | 470.6 | 
CN1CCCC1CCNCc1nc2ccccc2n1Cc1nc2ccccc2[nH]1 (stereo not shown) [compound 172] | 136 | 
C=CCN(C)Cc1nc2ccccc2n1Cc1nc2ccccc2[nH]1 [compound 83] | 305.3 | 
CC(=O)c1ccc(N2CCN(Cc3nc4ccccc4n3Cc3nc4ccccc4[nH]3)CC2)cc1 [compound 229] | 277.8 | 
COc1cc(CNCc2nc3ccccc3n2Cc2nc3ccccc3[nH]2)cc(OC)c1 [compound 122] | 111 | 
CCNCc1nc2ccccc2n1Cc1nc2ccccc2[nH]1 [compound 123] | 3846 | 
CCCCC(CO)NCc1nc2ccccc2n1Cc1nc2ccccc2[nH]1 (stereo not shown) [compound 176] | 196 | 
CCCCN(CCCC)CCCNCc1nc2ccccc2n1Cc1nc2ccccc2[nH]1 [compound 100] | 1.2 | 
Cc1ccc(N2CCN(Cc3nc4ccccc4n3Cc3nc4ccccc4[nH]3)CC2)c(C)c1 [compound 227] | 12.8 | 
COc1cccc(CNCc2nc3ccccc3n2Cc2nc3ccccc3[nH]2)c1OC [compound 181] | 143 | 
c1ccc(CN2CCN(Cc3nc4ccccc4n3Cc3nc4ccccc4[nH]3)CC2)cc1 [compound 231] | 7.1 | 
c1ccc2[nH]c(Cn3c(CN4CCCCCCC4)nc4ccccc43)nc2c1 [compound 233] | 6250 | 
Cc1ccccc1CNCc1nc2ccccc2n1Cc1nc2ccccc2[nH]1 [compound 133] | 143 | 
CC(C)N(Cc1nc2ccccc2n1Cc1ccccn1)C1CCCCC1 [compound 7] | 125 | 
c1ccc2[nH]c(Cn3c(CN4CCOCC4)nc4ccccc43)nc2c1 [compound 195] | 10000 | 

SMILES | Selective Index | SI
CCOC(=O)C1CCN(Cc2nc3ccccc3n2Cc2nc3ccccc3[nH]2)CC1 [compound 203] | 175.4 | 
OCC1CCCN(Cc2nc3ccccc3n2Cc2nc3ccccc3[nH]2)C1 (stereo not shown) [compound 211] | 152.4 | 
CSc1ccc(Cn2c(CN3CCCCC3)nc3ccccc32)cc1 [compound 76] | 6 | 
c1ccc2[nH]c(Cn3c(CN4CCCC4)nc4ccccc43)nc2c1 [compound 199] | 1000 | 
COc1ccc(CNCc2nc3ccccc3n2Cc2nc3ccccc3[nH]2)cc1 [compound 146] | 45 | 
c1ccc(CC(NCc2nc3ccccc3n2Cc2nc3ccccc3[nH]2)c2ccccc2)cc1 (stereo not shown) [compound 168] | 20 | 
c1ccc(CCNCc2nc3ccccc3n2Cc2nc3ccccc3[nH]2)cc1 [compound 155] | 217 | 
CC1CCCCC1NCc1nc2ccccc2n1Cc1nc2ccccc2[nH]1 (stereo not shown) [compound 153] | 155 | 
CC(CNCc1nc2ccccc2n1Cc1nc2ccccc2[nH]1)c1ccccc1 (stereo not shown) [compound 131] | 278 | 
CN(C)Cc1ccc2c(c1)nc(CN1CCOCC1)n2Cc1nc2ccccc2[nH]1 [compound 241] |  | 26
CCN(CC)CCCC(C)NCc1nc2ccccc2n1Cc1nc2ccccc2[nH]1 (stereo not shown) [compound 148] | 81 | 
COC(=O)c1ccc2[nH]c(CNN3CCOCC3)nc2c1 [compound 6] | 16.67 | 
C[C@@H](c1cccc2ccccc12)N(C)Cc1nc2ccccc2n1Cc1nc2ccccc2[nH]1 [compound 109] | 43.5 | 
FC(F)(F)Oc1ccccc1Cn1c(CN2CCCCC2)nc2ccccc21 [compound 75] | 26 | 
c1ccc2[nH]c(Cn3c(CNCCCn4ccnc4)nc4ccccc43)nc2c1 [compound 105] | 16.3 | 
CCC(CC)NCc1nc2ccccc2n1Cc1nc2ccccc2[nH]1 [compound 140] | 132 | 
O=[N+]([O-])c1ccc(Cn2c(CN3CCCCC3)nc3ccccc32)o1 [compound 77] | 67 | 
Cc1cccc(CNCc2nc3ccccc3n2Cc2nc3ccccc3[nH]2)c1 [compound 183] | 313 | 
O=C(O)c1ccc2[nH]c(CCl)nc2c1 [compound 4] | 8 | 
